# Measurements reported in PubChem BioAssay AID504761 (Drosophila RNAi Screening Center, 2011)
# Aim: 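Genome-wide fly cell screen for genes dengue virus requires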 (primary screen)
# System: D.Mel-2 cells from Drosophila
# Reagent: long dsRNA against Drosophila genes
# Challenge: infection with dengue virus type 2; dose and infection time not stated
# Measured: 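Cells stained for dengue envelope protein and imaged; percent of infected cells per well on duplicate plates, ranked by infection, with stained nuclei counted for cell number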
# Scale: infection score: higher = more virus-infected cells; cell count: higher = more cells in the well
# Call rule: 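Very low infection ranking in both replicate wells (chance probability at most 0.065), then a retest showing infection dropped 1.5-fold or more at p below 0.05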
# Calls: active = confirmed: knock-down lowers infection; inactive = not picked or not confirmed
# In all, the deposit lists about 22,000 reagents; below is a random part of those that have a named target and a result. In the full data, 116 (0.52%) are marked active. 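Calls depend on retest data that are not deposited; infection was ranked per plate without normalising between plates; the unit of the infection score is not given.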 Raw values vary from plate to plate and are shown uncorrected. The numbers tell different reagents against one gene apart. Names joined by + are all predicted targets of the reagent. The record does not give: the amount of reagent, the time to read-out.
The first 2 records as a preview:
gene,dsRNA no.,"infection score, replicate 1","infection score, replicate 2","cell count, replicate 1","cell count, replicate 2",Call
CG31697,1,3.08,9.44,6101,6144,inactive
CG14861,1,15.8,,6188,428,inactive

The list itself, repeating the preview:
gene,dsRNA no.,"infection score, replicate 1","infection score, replicate 2","cell count, replicate 1","cell count, replicate 2",Call
CG31697,1,3.08,9.44,6101,6144,inactive
CG14861,1,15.8,,6188,428,inactive
resilin,1,0.54,1.2,6279,6095,inactive
resilin,2,10.1,9.16,7203,6946,inactive
Teh3 (tipE homolog 3),1,3.26,3.98,6528,6181,inactive
Teh3 (tipE homolog 3),2,25.6,16,3232,4697,inactive
FASN2 (Fatty acid synthase 2),1,4.54,5.07,5721,5754,inactive
FASN2 (Fatty acid synthase 2),2,1.4,1.4,6017,6505,inactive
crok (crooked),1,3.99,7.39,5959,6074,inactive
crok (crooked),2,3.16,13.2,6072,6360,inactive
crok (crooked),3,12.1,6.47,6484,6386,inactive
CG4984 + CG4975,1,7.37,7.36,7025,6646,inactive
CG4984 + CG4975,2,18.6,26.2,6142,5820,inactive
Pdhb (Pyruvate dehydrogenase E1 beta subunit),1,1.25,1.65,6223,6915,inactive
Pdhb (Pyruvate dehydrogenase E1 beta subunit),2,9.61,4.42,6232,5810,inactive
Hs3st-B (Heparan sulfate 3-O sulfotransferase-B),1,2.05,0.03,6039,6473,inactive
cac (cacophony),1,3.12,5.99,6212,6298,inactive
cac (cacophony),2,0.73,4.27,6599,6599,inactive
Serinc (Serine incorporator),1,7.83,16.4,6701,5541,inactive
CG13972,1,3.59,5.51,6748,6154,inactive
CG13972,2,1.15,3.61,6888,6704,inactive
Sgt1 (suppressor-of-G2-allele-of-skp1),1,2.78,4.41,6194,6759,inactive
Sgt1 (suppressor-of-G2-allele-of-skp1),2,15.9,9.9,5788,6415,inactive
